# PubChem BioAssay AID624099 | ICCB-Longwood, 2012
# Assay: 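Host factors E2 relies on to silence an HPV18 LCR reporter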 (primary screen)
# Cells: human C33A cervical carcinoma cells (HPV-negative) stably expressing BPV1 E2 and an HPV18 LCR luciferase reporter
# Knock-down reagent: siRNA pool against human genes, 40 nM
# Time to read-out: 72 h
# Read-out: 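Per-well luciferase luminescence, z-scored on each plate against the plate mean and SD with control wells left out, then averaged across three replicate plates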
# Reading the numbers: mean z-score and z-score: higher = stronger reporter signal, weaker E2 silencing
# Hit rule: 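Mean z ≥ 2 together with z ≥ 2 in two or more of the three replicates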
# Shown is one part, drawn at random, of about 21,000 reagents. In the full data, 497 (2.4%) got an active call. 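Higher z means weaker E2 silencing; only reporter increases were scored, and knock-downs that hurt cell survival may mask genuine repressor factors.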 The numbers tell different reagents against one gene apart.
gene,pool no.,mean z-score,"z-score, replicate A","z-score, replicate B","z-score, replicate C",outcome
CDC20B,1,2.07,1.96,2.44,1.82,inactive
TADA1,1,0.53,0.3,0.51,0.8,inactive
PSG8,1,0.59,0.73,0.73,0.31,inactive
MAP4K4,1,-1.08,-1.23,-1.24,-0.78,inactive
SLC2A6,1,-1.38,-1.27,-1.2,-1.66,inactive
TMEM63C,1,-1.63,-1.59,-1.35,-1.96,inactive
CYP11B1,1,-0.79,-0.44,-1.05,-0.9,inactive
CAPS2,1,0.32,0.54,0.16,0.27,inactive
HOXA3,1,0.26,0.28,0.34,0.16,inactive
SHPRH,1,-0.44,-0.4,-0.61,-0.3,inactive
HGD,1,-0.57,-0.77,-0.95,0.01,inactive
FETUB,1,-0.19,-0.58,-0.32,0.33,inactive
TXNDC15,1,1.8,2.42,1.58,1.41,inactive
DOK1,1,-1.2,-1.06,-1.31,-1.22,inactive
MT1DP,1,0.19,-0.08,0.42,0.23,inactive
LOC389888 (retired record),1,0.07,0.53,-0.23,-0.1,inactive
OAS2,1,0.78,1.25,0.49,0.6,inactive
IFI44,1,-0.36,-0.26,-0.41,-0.42,inactive
SRSF1,1,-0.49,-0.75,-0.48,-0.23,inactive
ZNF701,1,-1.23,-1.71,-0.93,-1.06,inactive
SLC66A2,1,0.05,0.54,-0.47,0.09,inactive
CNPY4,1,1.88,2.08,1.87,1.67,inactive
TSPYL4,1,-0.11,-0.62,0.28,0,inactive
SLIT1,1,0.61,0.62,0.4,0.83,inactive
SLC7A11,1,-0.82,-1.03,-0.42,-1,inactive
UTY,1,-1.13,-1.18,-1.14,-1.07,inactive
RPA4,1,-1.06,-0.73,-1.27,-1.19,inactive
C1QL3,1,-0.51,-1.1,-0.46,0.05,inactive
TNPO1,1,-0.07,0.08,-0.2,-0.09,inactive
SHKBP1,1,-0.22,-0.5,-0.35,0.19,inactive
NFATC2,1,0.35,0.43,0.22,0.4,inactive
IFT88,1,0.91,0.95,0.92,0.85,inactive
C8orf76,1,-0.35,-0.62,-0.02,-0.41,inactive
SERPINA7,1,-0.34,-0.18,-0.03,-0.81,inactive
GNA12,1,-0.61,-0.75,-0.77,-0.31,inactive
DENND11,1,1.45,1.39,1.35,1.63,inactive
LOC388205 (retired record),1,-0.21,-0.21,-0.61,0.19,inactive
LY6S-AS1,1,-0.42,-0.32,-0.36,-0.57,inactive
USP53,1,-0.1,-0.35,0.04,0.02,inactive
USP53,2,0.27,0.26,0.18,0.37,inactive
LINC01721,1,-0.36,-0.55,-0.33,-0.21,inactive
TMPRSS15,1,0.89,1.64,0.69,0.34,inactive
CCT3,1,0.5,0.67,0.48,0.37,inactive
LOC388530 (retired record),1,1.6,1.68,1.63,1.48,inactive
LOC389892 (retired record),1,-0.05,-0.41,0,0.26,inactive
UBTFL2,1,1.12,1.19,0.85,1.31,inactive
SREK1IP1,1,-0.89,-0.66,-1.25,-0.77,inactive
DPH1,1,0.15,0.09,0.18,0.18,inactive
PMP22,1,-1.25,-1.26,-1.22,-1.28,inactive
TRIM8,1,0.08,0.06,-0.01,0.19,inactive
BPNT2,1,-0.58,-1,-0.81,0.08,inactive
TRMT6,1,1.1,0.99,1.08,1.24,inactive
CST9L,1,0.06,-0.24,0.38,0.03,inactive
NSUN4,1,1.63,1.54,1.35,2.01,inactive
UCMA,1,-0.3,-0.41,-0.14,-0.36,inactive
ZMAT1,1,-0.51,-0.61,-0.34,-0.57,inactive
MPP3,1,-1.35,-1.32,-1.38,-1.35,inactive
NR2C2AP,1,-0.99,-0.5,-1.46,-1.01,inactive
FBXO31,1,-0.92,-0.51,-1.17,-1.08,inactive
AMN,1,-0.26,0.04,-0.35,-0.48,inactive
UMODL1-AS1,1,4.41,4.1,5.07,4.05,active
CAPZA3,1,-0.84,-0.73,-1.09,-0.7,inactive
TLX2,1,2.41,2.18,2.27,2.78,active
LINC02903,1,-0.55,-0.9,-0.5,-0.24,inactive
LINC02903,2,-0.84,-0.3,-1.21,-1.02,inactive
COMP,1,1.65,1.76,1.68,1.51,inactive
BAALC,1,0.32,0.57,0.49,-0.09,inactive
MAL,1,-0.16,-0.49,0.19,-0.18,inactive
LY86-AS1,1,-1.27,-1.51,-0.9,-1.39,inactive
ITK,1,2.06,2.39,1.91,1.89,inactive
PPY,1,0.55,0.67,0.52,0.45,inactive
LOC285711 (retired record),1,1.08,1.05,0.8,1.39,inactive
NUP155,1,1.27,0.92,1.41,1.47,inactive

An excerpt from above, limited to “z-score, replicate B”.
LOC389888 (retired record)	-0.23
OAS2	0.49
IFI44	-0.41
SRSF1	-0.48
ZNF701	-0.93
SLC66A2	-0.47
CNPY4	1.87
TSPYL4	0.28
